Pooled drug test results. Numbers come from NIAID ChemDB, via PubChem.

Shared fields: tests in culture; agent: Aspergillus fumigatus; endpoint: MIC

Lines come from different laboratories, so protocols vary. An empty or dashed field is not shown.

{"SMILES": "Cc1ccc(Sc2nc3ccc(C)cc3cc2C2C(C#N)=C(N)Oc3cc(C)oc(=O)c32)cc1", "strain or isolate": "MTCC 3008", "read by": "broth dilution", "result": "250 µg/mL"}
{"SMILES": "CCOC(=O)C1=C(N)N(c2nc(-c3ccc(Cl)cc3)cs2)C2=C(C(=O)CCC2)C1c1cc2ccccc2nc1F", "strain or isolate": "MTCC 3008", "read by": "broth dilution", "result": "200 µg/mL"}
{"SMILES": "COc1ccc2nc(N3CCOCC3)c(CC(C#N)c3nc4ccc(C)cc4[nH]3)cc2c1", "strain or isolate": "MTCC 3008", "read by": "broth dilution", "result": "250 µg/mL"}
{"SMILES": "CCCCCCCCCCNC1CCc2ccc(OC)cc2C1", "result": ">64 µM"}
{"SMILES": "Cc1ccc2nc(Sc3ccccc3)c(C3C(C#N)=C(N)Oc4c3c(=O)oc3ccccc43)cc2c1", "strain or isolate": "MTCC 3008", "read by": "broth dilution", "result": "100 µg/mL"}
{"SMILES": "Cc1ccc(C(=O)/C=C/c2ccc(C(=O)N3C/C(=C\\c4ccccc4)C(=O)/C(=C/c4ccccc4)C3)cc2)cc1", "strain or isolate": "3 clinical isolates", "result": ">32 µg/mL"}
{"SMILES": "Cc1nc([N+](=O)[O-])cn1CC(=O)CN1CCN(C(c2ccccc2)c2ccc(Cl)cc2)CC1", "strain or isolate": "ATCC 96918", "read by": "broth dilution", "result": "100 µg/mL"}
{"SMILES": "COc1cccc(/C=C/C(=O)c2ccc(Br)cc2)c1OC", "strain or isolate": "ATCC 26934", "result": ">50 µg/mL"}
{"SMILES": "Cc1ccc2nc(Oc3ccccc3)c(C3C(C#N)=C(N)Oc4c3c(=O)oc3ccc(C)cc43)cc2c1", "strain or isolate": "MTCC 3008", "result": ">1000 µg/mL"}
{"SMILES": "c1ccc([C@H]2CN3CCSC3=N2)cc1", "read by": "broth dilution", "result": ">120 µM"}
{"SMILES": "COc1ccc(C(=O)CC(c2ccc3ccccc3c2)C(C#N)C#N)cc1OC", "strain or isolate": "ATCC 26934", "result": ">50 µg/mL"}
{"SMILES": "Cc1ccc2nc(N3CCOCC3)c(/C=C(/C#N)c3nc4ccccc4[nH]3)cc2c1", "strain or isolate": "MTCC 3008", "read by": "broth dilution", "result": "1000 µg/mL"}
{"SMILES": "COc1cc(C=O)cc(OC)c1", "strain or isolate": "AF293", "read by": "agar", "result": "1000 µM"}
{"SMILES": "N#CC1=C(N)Oc2c(c(=O)oc3ccccc23)C1c1cc2ccccc2nc1Sc1ccc(Cl)cc1", "strain or isolate": "MTCC 3008", "read by": "broth dilution", "result": ">1000 µg/mL"}
{"SMILES": "O=C1/C(=C/c2ccccc2)CN(C(=O)/C=C/c2ccc(Cl)cc2)C/C1=C\\c1ccccc1", "strain or isolate": "3 clinical isolates", "result": ">32 µg/mL"}
{"SMILES": "CCCCCCCCCCNC1CCc2cc(O)ccc2C1", "result": ">64 µM"}
{"SMILES": "COC(=O)C(C(=O)OC)C(CC(=O)c1ccccc1)c1ccccc1", "strain or isolate": "ATCC 26934", "result": ">50 µg/mL"}
{"SMILES": "Cc1ccc2nc(F)c(C3C(C#N)=C(N)N(c4nc(-c5ccccc5)cs4)C4=C3C(=O)CCC4)cc2c1", "strain or isolate": "MTCC 3008", "read by": "broth dilution", "result": "1000 µg/mL"}
{"SMILES": "COc1ccc2nc(Sc3ccc(C)cc3)c(C3C(C#N)=C(N)Oc4cc(C)oc(=O)c43)cc2c1", "strain or isolate": "MTCC 3008", "read by": "broth dilution", "result": "1000 µg/mL"}
{"SMILES": "C[C@H]1[C@H](O)[C@@H](C)/C=C/C=C/C=C/C=C/C=C/C=C/C=C/[C@H](O[C@@H]2O[C@H](C)[C@@H](O)[C@H](N)[C@@H]2O)C[C@@H]2O[C@](O)(C[C@@H](O)C[C@@H](O)CC[C@H](O)[C@@H](O)C[C@@H](O)CC(=O)O[C@H]1C)C[C@H](O)[C@H]2C(=O)O", "strain or isolate": "ITCC 4517", "read by": "broth dilution", "result": "1.95 µg/mL"}
{"SMILES": "COc1ccc(C(=O)/C=C/c2ccc(C(=O)N3C/C(=C\\c4ccccc4)C(=O)/C(=C/c4ccccc4)C3)cc2)cc1", "strain or isolate": "3 clinical isolates", "result": ">32 µg/mL"}
{"SMILES": "O=C(CN1CCN(C(c2ccccc2)c2ccc(Cl)cc2)CC1)Cn1cnc([N+](=O)[O-])c1", "strain or isolate": "ATCC 96918", "read by": "broth dilution", "result": "50 µg/mL"}
{"SMILES": "CC1C(N=Nc2ccc(Cl)cc2)SC(=Nc2ccccc2)N1CCN1C(=Nc2ccccc2)SC(N=Nc2ccc(Cl)cc2)C1C", "read by": "broth dilution", "result": "3.9 µg/mL"}
{"SMILES": "CCOC(=O)C1=C(N)N(c2nc(-c3ccc(Cl)cc3)cs2)C2=C(C(=O)CCC2)C1c1cc2cc(OC)ccc2nc1F", "strain or isolate": "MTCC 3008", "read by": "broth dilution", "result": ">1000 µg/mL"}
{"SMILES": "CC(C)(C)c1ccc(CN(Cc2cccc3ccccc23)n2cnnc2)cc1", "result": ">200 µM"}
{"SMILES": "COc1ccc(/C=C/C(=O)c2ccccc2)c(OC)c1", "strain or isolate": "ATCC 26934", "result": ">50 µg/mL"}
{"SMILES": "Cc1cc2ncn(CC(=O)N3CCN(C(c4ccccc4)c4ccc(Cl)cc4)CC3)c2cc1C", "strain or isolate": "ATCC 96918", "read by": "broth dilution", "result": "100 µg/mL"}
{"SMILES": "COc1ccc(C(=O)/C=C/c2ccc(C(=O)O)cc2)cc1", "strain or isolate": "3 clinical isolates", "result": ">32 µg/mL"}
{"SMILES": "COc1ccc2nc(N3CCOCC3)c(CC(C#N)c3nc4ccccc4[nH]3)cc2c1", "strain or isolate": "MTCC 3008", "read by": "broth dilution", "result": "500 µg/mL"}
{"SMILES": "CC(C)(C)c1ccc(CN(Cc2cccc3ccccc23)N2C=NNC2)cc1", "result": ">200 µM"}
{"SMILES": "O=C/C=C/c1ccccc1", "strain or isolate": "AF293", "read by": "agar", "result": "1000 µM"}
{"SMILES": "Cc1ccc(C(=O)/C=C/c2ccc(C(=O)O)cc2)cc1C", "strain or isolate": "3 clinical isolates", "result": ">32 µg/mL"}
{"SMILES": "COc1ccc2nc(Sc3ccc(C)cc3)c(C3C(C#N)=C(N)Oc4c3c(=O)oc3ccc(C)cc43)cc2c1", "strain or isolate": "MTCC 3008", "read by": "broth dilution", "result": "1000 µg/mL"}
{"SMILES": "COc1ccc2nc(N3CCOCC3)c(/C=C(/C#N)c3nc4ccccc4[nH]3)cc2c1", "strain or isolate": "MTCC 3008", "read by": "broth dilution", "result": "1000 µg/mL"}
{"SMILES": "O=C(Cn1cnc2ccccc21)N1CCN(C(c2ccccc2)c2ccc(Cl)cc2)CC1", "strain or isolate": "ATCC 96918", "read by": "broth dilution", "result": "100 µg/mL"}
{"SMILES": "COc1ccc2nc(Oc3ccc(Cl)cc3)c(C3C(C#N)=C(N)Oc4c3c(=O)oc3ccc(C)cc43)cc2c1", "strain or isolate": "MTCC 3008", "result": "500 µg/mL"}
{"SMILES": "O=c1oc2ccccc2cc1-c1ccc(C2CSC(=Nc3ccccc3)N2CCN2C(=Nc3ccccc3)SCC2c2cc3ccccc3oc2=O)cc1", "read by": "broth dilution", "result": "0.03 µg/mL"}
{"SMILES": "CCCCCCCCCNC1CCc2ccc(O)cc2C1", "result": "32 µM"}
{"SMILES": "Cc1ccc2oc(=O)c3c(c2c1)OC(N)=C(C#N)C3c1cc2ccccc2nc1Sc1ccc(Cl)cc1", "strain or isolate": "MTCC 3008", "read by": "broth dilution", "result": ">1000 µg/mL"}
{"SMILES": "CCCCCCCCCCNC1CCc2ccc(O)cc2C1", "result": "16 µM"}
{"SMILES": "Cc1ccc2nc(Sc3ccc(Cl)cc3)c(C3C(C#N)=C(N)Oc4cc(C)oc(=O)c43)cc2c1", "strain or isolate": "MTCC 3008", "read by": "broth dilution", "result": "1000 µg/mL"}
{"SMILES": "C[C@@H](c1ncncc1F)[C@](O)(Cn1cncn1)c1ccc(F)cc1F", "strain or isolate": "NFI 0159", "result": "0.13 µg/mL"}
{"SMILES": "COc1ccc(C(=O)/C=C/c2ccc(C(=O)N3C/C(=C/c4ccccc4)C(=O)/C(=C\\c4ccccc4)C3)cc2)cc1OC", "strain or isolate": "3 clinical isolates", "result": ">32 µg/mL"}
{"SMILES": "CCCCCCCCOc1ccc(-c2ccc(C(=O)NC3CC(NCCN)CNC(=O)[C@@H]4[C@@H](O)[C@@H](C)CN4C(=O)[C@@H](CO)NC(=O)[C@H]([C@H](O)Cc4ccccc4)NC(=O)[C@@H]4C[C@@H](O)CN4C(=O)[C@H]([C@@H](C)O)NC3=O)cc2)cc1", "strain or isolate": "50 isolates", "result": "0.179 µg/mL"}
{"SMILES": "COc1ccc2nc(Oc3ccccc3)c(C3C(C#N)=C(N)Oc4c3c(=O)oc3ccccc43)cc2c1", "strain or isolate": "MTCC 3008", "result": "500 µg/mL"}
{"SMILES": "COc1ccc(O)c(C=O)c1", "strain or isolate": "AF293", "read by": "agar", "result": "500 µM"}
{"SMILES": "COc1ccc(/C=C/C(=O)c2ccccc2)cc1", "strain or isolate": "ATCC 26934", "result": ">50 µg/mL"}
{"SMILES": "Cc1ccc2nc(Oc3ccc(Cl)cc3)c(C3C(C#N)=C(N)Oc4c3c(=O)oc3ccc(C)cc43)cc2c1", "strain or isolate": "MTCC 3008", "result": "500 µg/mL"}
{"SMILES": "O=C1/C(=C/c2ccccc2)CN(C(=O)/C=C/c2ccc([N+](=O)[O-])cc2)C/C1=C\\c1ccccc1", "strain or isolate": "3 clinical isolates", "result": ">32 µg/mL"}
{"SMILES": "CC(C)(C)c1ccc(CN(Cc2cccc3ccccc23)n2ccnc2)cc1", "result": ">200 µM"}
{"SMILES": "Cc1ccc(Oc2nc3ccc(C)cc3cc2C2C(C#N)=C(N)Oc3c2c(=O)oc2ccc(C)cc32)cc1", "strain or isolate": "MTCC 3008", "result": "500 µg/mL"}
{"SMILES": "COc1cccc(/C=C/C(=O)c2ccccc2)c1", "strain or isolate": "ATCC 26934", "result": ">50 µg/mL"}
{"SMILES": "CN(C/C=C/C#CC(C)(C)C)Cc1cccc2ccccc12", "strain or isolate": "NFI 0239", "result": "2 µg/mL"}
{"SMILES": "CCOC(=O)C1=C(N)N(c2nc(-c3ccccc3)cs2)C2=C(C(=O)CCC2)C1c1cc2ccccc2nc1F", "strain or isolate": "MTCC 3008", "read by": "broth dilution", "result": "250 µg/mL"}
{"SMILES": "Cc1ccc2nc(Sc3ccc(Cl)cc3)c(C3C(C#N)=C(N)Oc4c3c(=O)oc3ccccc43)cc2c1", "strain or isolate": "MTCC 3008", "read by": "broth dilution", "result": ">1000 µg/mL"}
{"SMILES": "CCOC(=O)C1=C(N)N(c2nc(-c3ccc(Cl)cc3)cs2)C2=C(C(=O)CCC2)C1c1cc2cc(C)ccc2nc1F", "strain or isolate": "MTCC 3008", "read by": "broth dilution", "result": "500 µg/mL"}
{"SMILES": "Cc1cc2c(c(=O)o1)C(c1cc3ccccc3nc1Sc1ccc(Cl)cc1)C(C#N)=C(N)O2", "strain or isolate": "MTCC 3008", "read by": "broth dilution", "result": ">1000 µg/mL"}
{"SMILES": "N#CC1=C(N)N(c2nc(-c3ccc(Cl)cc3)cs2)C2=C(C(=O)CCC2)C1c1cc2cc(Cl)ccc2nc1F", "strain or isolate": "MTCC 3008", "read by": "broth dilution", "result": ">1000 µg/mL"}
{"SMILES": "Cc1ccc2oc(=O)c3c(c2c1)OC(N)=C(C#N)C3c1cc2ccccc2nc1Oc1ccccc1", "strain or isolate": "MTCC 3008", "result": ">1000 µg/mL"}

4 of the rows above, restated:

SMILES | strain or isolate | read by | result
Cc1ccc2nc(Sc3ccccc3)c(C3C(C#N)=C(N)Oc4c3c(=O)oc3ccccc43)cc2c1 | MTCC 3008 | broth dilution | 100 µg/mL
COc1cccc(/C=C/C(=O)c2ccccc2)c1 | ATCC 26934 |  | >50 µg/mL
Cc1cc2c(c(=O)o1)C(c1cc3ccccc3nc1Sc1ccc(Cl)cc1)C(C#N)=C(N)O2 | MTCC 3008 | broth dilution | >1000 µg/mL
C[C@H]1[C@H](O)[C@@H](C)/C=C/C=C/C=C/C=C/C=C/C=C/C=C/[C@H](O[C@@H]2O[C@H](C)[C@@H](O)[C@H](N)[C@@H]2O)C[C@@H]2O[C@](O)(C[C@@H](O)C[C@@H](O)CC[C@H](O)[C@@H](O)C[C@@H](O)CC(=O)O[C@H]1C)C[C@H](O)[C@H]2C(=O)O | ITCC 4517 | broth dilution | 1.95 µg/mL